Values from PubChem BioAssay AID504761 (Drosophila RNAi Screening Center, 2011).
The deposit covers about 22,000 reagents; this is an unselected part of those with a known target gene and a result. In the full data, 116 (0.52%) were called active. 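Calls depend on retest data that are not deposited; infection was ranked per plate without normalising between plates; the unit of the infection score is not given.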 Entries without a mark were called inactive. Names joined by + are all predicted targets of the reagent. Not all columns of the deposit are shown. Not stated in the record: the amount of reagent, the time to read-out.

- Aim: 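Fly genes whose silencing reduces dengue virus type 2 infection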 (primary screen)
- Cells: D.Mel-2 cells from Drosophila
- Reagent: long dsRNA against Drosophila genes
- Conditions: infection with dengue virus type 2; dose and infection time not stated
- Detection: 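Cells stained for dengue envelope protein and imaged; percent of infected cells per well on duplicate plates, ranked by infection, with stained nuclei counted for cell number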
- Reading the numbers: infection score: higher = more virus-infected cells
- Hit rule: 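Very low infection ranking in both replicate wells (chance probability at most 0.065), then a retest showing infection dropped 1.5-fold or more at p below 0.05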
- Calls: active = confirmed: knock-down lowers infection; inactive = not picked or not confirmed

For drd [DRSC19343] the deposit lists infection score, replicate 1 = 5.23. drd [DRSC21466] showed infection score, replicate 1 = 2.49. Against drd [DRSC26473], the entry reads infection score, replicate 1 = 1.28. Knock-down of galla-1 [DRSC05987] gave: infection score, replicate 1 = 2.45. eIF6 [DRSC04674] gave infection score, replicate 1 = 19. With knock-down of eIF6 [DRSC29068], the screen gave infection score, replicate 1 = 6.8.

frc + Coq4 + Gorab [DRSC29314] scored infection score, replicate 1 = 1.3. CG31176 [DRSC15038] gave infection score, replicate 1 = 2.13. With knock-down of CG31176 [DRSC16021], the screen gave infection score, replicate 1 = 6.08. After knock-down of PGRP-SA [DRSC19420] the results were infection score, replicate 1 = 5.38. Muc11A [DRSC19498] scored infection score, replicate 1 = 4.13. After knock-down of Muc11A [DRSC29295], the screen gave infection score, replicate 1 = 13.3.
